Experimental data as given in patent publication US20220371986A1, “METHOD TO GENERATE BIOCHEMICALLY REACTIVE AMINO ACIDS” (The Regents of the University of California, priority 2019, published 2022).

Test system: MBP-Z24FSY
Assay: In vivo crosslinking of MBP-Z24FSY with Afb-7X co-expressed in E. coli (Western blot, SDS-PAGE, tandem MS)
Assay type: cell-based
Settings: for crosslinking efficiency with MBP-Z24FSY: co-expressed in E. coli 37° C. 6 h, purified His-tagged proteins on SDS-PAGE; for cross-linking bands with MBP-Z24FSY: co-expressed in E. coli, Western blot and SDS-PAGE; for crosslinked peptides with MBP-Z24FSY detected by tandem MS: purified proteins
Excerpt: The inventors then determined whether the incorporated FSY could react with natural amino acid residues via proximity-enabled reactivity directly in E. coli. Afb binds to its substrate Z protein with a moderate affinity, providing a suitable protein framework to study FSY crosslinking in vivo. In light of the crystal structure of Afb-Z complex (Hogbom, et al, P. Proc. Natl. Acad. Sci. USA, 100:3191-3196 (2003)), the inventors introduced FSY at position 24 of Z protein and the target natural residue at position 7 of Afb, placing the two residues in close proximity upon Afb-Z binding (FIG. 3A). As aryl fluorosulfate is a weak electrophile, the inventors decided to test FSY's reactivity toward Lys, His, Tyr, Cys, Ser, and Thr using Ala as a negative control. To better separate the Afb and Z proteins of similar molecular weights, we fused maltose binding protein (MBP) to the N-terminus of Z (MBP-Z). MBP-Z and Afb were both appended with a 6×His-tag at C-terminus. To determine whether chemical crosslinking could occur in living cells, we co-expressed MBP-Z24FSY and Afb-7X (X=target residue) in E. coli. After culturing at 37° C. for 6 h, the same number of cells were analyzed using Western blot under denatured conditions. […] 6×His-tagged proteins were purified from cells and analyzed with SDS-PAGE.
To further validate the in vivo chemical crosslinking ability of FSY, the purified proteins were analyzed using tandem MS.
Afb4A-7X and MBP-Z24FSY: The pEvol-FSYRS and pET-Duet-Afb4A-7X-MBP-Z24TAG were co-transformed into BL21(DE3) E. coli chemical competent cells. The transformants were plated on an LB-Amp100Cm34 agar plate and incubated overnight at 37° C. A single colony was inoculated into 5 mL of 2×YT-Amp100Cm34 and cultured overnight at 37° C. On the following day, 1 mL of overnight cell culture was diluted into 50 mL 2×YT-Amp100Cm34 and agitated vigorously at 37° C. When OD600 reached 0.4˜0.6, the cell culture was induced with 0.5 mM IPTG and 0.2% arabinose, then incubated at 37° C. for 6 h. Cell pellets were collected by centrifugation at 4200 g for 30 min at 4° C. and stored at −80° C.
His-tag protein purification: Above cell pellets were resuspended in 14 mL lysis buffer (50 mM Tris-HCl pH 8.0, 500 mM NaCl, 20 mM imidazole, 1% v/v Tween 20, 10% v/v glycerol, lysozyme 1 mg/mL, DNase 0.1 mg/mL, and protease inhibitors). The cell suspension was lysed at 4° C. for 30 min. Cell lysate was sonicated with Sonic Dismembrator (Fisher Scientific, 30% output, 3 min, 1 sec off, 1 sec on) in an ice-water bath, followed by centrifugation (20,000 g, 30 min, 4° C.). The soluble fractions were collected and incubated with pre-equilibrated Protino®Ni-NTA Agarose resin (400 μL) at 4° C. for 1 h with constant mechanical rotation. The slurry was loaded onto a Poly-Prep® Chromatography Column, washed with 5 mL of wash buffer (50 mM Tris-HCl pH 8.0, 500 mM NaCl, 20 mM imidazole, and 10% v/v glycerol) for 3 times, and eluted with 200 μL of elution buffer (50 mM Tris-HCl, pH 8.0, 500 mM NaCl, 250 mM imidazole, and 10% v/v glycerol) for 5 times. The eluates were concentrated and buffer exchanged into 100 μL of protein storage buffer (50 mM Tris-HCl, pH 7.4 or 8.0, and 150 mM NaCl) using Amicon Ultra columns, and stored at −80° C. for future analysis.
Protein digestion and tandem mass spectrometry measurement were performed as previously described by Yang et al, Nat. Communi., 8:2240 (2017). The Afb/MBP-Z samples were digested with Glu-C. The CaM and Trx1/PAPS reductase samples were digested by trypsin. Digested peptides were analyzed with an in-line EASY-spray source and nano-LC UltiMate 3000 high-performance liquid chromatography system (Thermo Fisher) interfaced with Elite mass spectrometer (Thermo Fisher). Peptides were eluted over gradient of 2%-40% buffer B (80% acetonitrile, 20% H2O, 0.1% formic acid) at flow rate 300 nL/min from EASY-Spray PepMap C18 Columns (50 cm; particle size, 2 μm; pore size, 100 Å; Thermo Fisher). […]

Q: How did the “crosslinking efficiency with MBP-Z24FSY” value turn out when “Afb-7Lys: Zspa affibody (Afb) with Lys at position 7, C-terminal 6×His-tag” was run?
A: 59%

Q: What does the source list for “Afb-7Ser: Z-binding affibody (Afb) with Ser introduced at position K7”?
A: cross-linking bands with MBP-Z24FSY: no cross-linking bands were observed; crosslinked peptides with MBP-Z24FSY detected by tandem MS: no crosslinked peptides

Q: “Afb-7Tyr: Zspa affibody (Afb) with Tyr at position 7” was tested. Which “crosslinking efficiency with MBP-Z24FSY” value did it give?
A: 35%

Q: How did the “cross-linking bands with MBP-Z24FSY” value turn out when “Afb-7Thr: Z-binding affibody (Afb) with Thr at position 7” was run?
A: no cross-linking bands were observed

Q: What about the “crosslinked peptides with MBP-Z24FSY detected by tandem MS” value of the same substance?
A: no crosslinked peptides

Q: With “Afb-7His: Zspa affibody (Afb) with His at position 7” as the substance, how does the “crosslinking efficiency with MBP-Z24FSY” value read?
A: 53%
